Data on one molecule can be found in publication PMC7932109 (Science (New York, N.y.), 2021).

The assay addresses SARS-CoV-2 spike receptor binding domain (RBD), residues 319 to 541 (SARS-CoV-2, UniProt P0DTC2, biotinylated for SPR; […] no label told for ELISA and crystals). In words: SPR. As to conditions: both partners purified.

What is called Kd is the free concentration of one partner at which half of the binding sites on the other are occupied at equilibrium, for simple one-to-one binding. A low value points to a tighter complex.

B1: VHH E (VHH)
VHH: QVQLVETGGGFVQPGGSLRLSCAASGVTLDYYAIGWFRQAPGKEREGVSCIGSSDGRTYYSDSVKGRFTISRDNAKNTVYLQMNSLKPEDTAVYYCALTVGTYYSGNYHYTCSDDMDYWGKGTQVTVSS
notes: also called nanobody E; source: E. coli WK6, periplasmic extract, purified (Ni-NTA, desalting or gel filtration)
The molecule B1 showed a Kd of 2 nM.
